The source of these data is article PMC12472551, “Comprehensive Identification and Mechanistic Evaluation of Novel DHODH Inhibitors as Potent Broad-Spectrum Antiviral Agents” (Pharmaceuticals, 2025).

For data set [1], the system named is influenza A virus (A/PR/8/34(H1N1)). The format is cell-based. To be noted: SI = CC50/IC50.
The test system of data set [2] is SARS-CoV-2. The format is cell-based. Conditions: SI = CC50/IC50.

Take `CC1(c2ccccc2)CC(C)(C)N(C(=O)CSc2nc(O)cc(CSc3ccc(Cl)cc3)n2)c2ccccc21` (centres unmarked) [Compound 1]: in data set [1], the SI was 0.9.

For the molecule `CCCCc1nn2c(=O)cc(CSc3nc4ccc(NC(C)=O)cc4s3)nc2s1` [Compound 4], the SI in data set [1] is reported as over 3.0. Molecule `CC(=O)c1ccc(N2CCN(C(=O)c3cc4c(=O)n(C)c5ccccc5c4s3)CC2)cc1` [Compound 6] returned an SI in data set [1] of over 41.2. Consider `O=C(Cc1cccs1)Nc1ccc(N2CCN(c3ccccc3Cl)CC2)cc1C(=O)O` [Compound 7], for which the SI in data set [1] is over 11.6. As for `CN1C(=O)c2ccccc2Sc2cc(-c3noc(CNC(=O)Cc4ccc(Cl)cc4)n3)ccc21` [Compound 8], the SI in data set [1] is on record as over 14.9.

In data set [1], `Cc1ccc(-c2onc3ccc(-c4cc(C(=O)O)c5cc(C)ccc5n4)cc23)cc1` [Compound 10] had an SI of over 114.3.

As for `Cc1cc2nc(C)c(C(=O)O)n2cc1-c1ccc(-c2ccccc2)cc1` [Compound 11, 6-([1,1′-Biphenyl]-4-yl)-2,7-dimethylimidazo[1,2-a]pyridine-3-carboxylic acid], the SI in data set [1] is over 235.3; in data set [2], over 55.6. Take `Cc1nc2ccc(-c3ccc(-c4ccccc4)cc3)cn2c1C(=O)O` [Compound 12, 6-([1,1′-Biphenyl]-4-yl)-2-methylimidazo[1,2-a]pyridine-3-carboxylic acid]: in data set [1], the SI is over 2.0. For the molecule `Cc1nc2ncc(-c3ccc(-c4ccccc4)cc3)cn2c1C(=O)O` [Compound 13, 6-([1,1′-Biphenyl]-4-yl)-2-methylimidazo [1,2-a]pyrimidine-3-carboxylic acid], the SI in data set [1] is reported as over 185.2; in data set [2] it was over 1.9.
